# Experiment: Selectivity index ratio of CC50 / EC50 was determined
# Assay type: functional
compound,measurement,value
NC(=O)c1ncn([C@@H]2O[C@H](CO)[C@@H](O)[C@H]2O)n1 [RIBAVIRIN],Ratio,> 47.6
